Data: paper PMC10707942, “Polyaromatic Bis(indolyl)methane Derivatives with Antiproliferative and Antiparasitic Activity” (Molecules, 2023)

Columns and labels:
MRC-5 cells = experiment: Fluorescence microscopy, overlap with MitoTracker in MRC-5 cells; type: cell-based, human; conditions: 5 μM
T. brucei parasites = experiment: Fluorescence microscopy, overlap with nuclear dye in T. brucei parasites; type: cell-based, Trypanosoma brucei; conditions: 5 μM

Q: With `c1ccc(N(c2ccccc2)c2ccc(C(c3c[nH]c4ccccc34)c3c[nH]c4ccccc34)cc2)cc1` [Compound 2a] as the compound, how does the “Pearson's correlation coefficient (PCC), overlap with MitoTracker” value (MRC-5 cells; 30 min incubation) read?
A: Its value is 0.83 ± 0.05.

Q: And the “Pearson's correlation coefficient (PCC), overlap with MitoTracker” value (MRC-5 cells; 2 h incubation)?
A: The value was 0.95 ± 0.06.

Q: What about the “Pearson's correlation coefficient (PCC), overlap with nuclear dye” value (T. brucei parasites; 30 min incubation) of the same compound?
A: Its value is 0.66 ± 0.19.

Q: And the “Pearson's correlation coefficient (PCC), overlap with nuclear dye” value (T. brucei parasites; 1 h incubation)?
A: Its value is 0.82 ± 0.08.

Q: What about the “Pearson's correlation coefficient (PCC), overlap with nuclear dye” value (T. brucei parasites; 2 h incubation) of the same compound?
A: Its value is 0.85 ± 0.08.
